Test results published in patent publication US20220401514A1, “ANTIMICROBIAL, BACTERIOPHAGE-DERIVED POLYPEPTIDES AND THEIR USE AGAINST GRAM-NEGATIVE AND ACID-FAST BACTERIA” (CONTRAFECT CORPORATION, priority 2019, published 2022).

Test system: P. aeruginosa strain CFS 1292
Type: cell-based, Pseudomonas aeruginosa
Settings: 21-day study, duplicates (1),(2)

In the case of `NC[C@H]1O[C@H](O[C@H]2[C@H](O)[C@@H](O[C@H]3O[C@H](CO)[C@@H](O)[C@H](N)[C@H]3O)[C@H](N)C[C@@H]2N)[C@H](N)C[C@@H]1O` [Tobra], the “Serial Passage MIC Day 0” value is reported as 0.125 µg/mL.
